# Values from PubChem BioAssay AID1224833 (University of Georgia, 2016).
# Test: 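Host factors restraining rotavirus as candidate antiviral genes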 (primary screen)
# System: monkey MA104 kidney cells
# Reagent: siRNA pool against human genes, 50 nM
# Timing: 48 h knock-down before infection; read 24 h after infection
# Treatment: infection with rotavirus strain RV3 two days after transfection; infectious dose for this stage not given
# Read-out: 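Rotavirus antigen per well by fluorescent immunoassay, normalised to non-targeting control wells on each plate and given as a standard z-score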
# Scale: z-score vs non-targeting control: higher = more rotavirus replication than with non-targeting control
# Rule for the call: In these data the active calls have z-score vs non-targeting control at about -1 or lower, or at about 1 or higher
# Calls: active = z-score beyond 1 either way; inactive = z-score within 1 of zero
# The deposit covers about 12,000 reagents; shown is an unselected part. About 5,600 of all reagents (46%) count as active. 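Active calls cover z-scores past 1 in both directions, so they include lowered as well as raised rotavirus replication.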
gene symbol,z-score vs non-targeting control,call
IGSF3,-2.25,active
HYAL4,-0.617,inactive
IFNAR2,-1.49,active
NEGR1,0.452,inactive
TTC31,1.41,active
POLR2A,-5.34,active
SHFL,-0.604,inactive
OR4K13,-1.13,active
NUP35,-1.2,active
COL25A1,1.51,active
CCDC8,-1.65,active
LANCL2,-1.61,active
VWA5B1,-0.536,inactive
KHDC1,-1.56,active
SH3GL3,-1.57,active
SRPRA,1.97,active
RAB11FIP1,1.31,active
LRRC45,0.792,inactive
GSTK1,1.85,active
PSMC2,1.38,active
MTNAP1,0.792,inactive
FAM78A,-0.769,inactive
CDK5RAP2,-0.551,inactive
SLIRP-OT1,-1.9,active
VRTN,-1.38,active
TMEM52,1.4,active
SLTM,-0.885,inactive
C2orf76,-1.31,active
CTAGE6,-1.12,active

Part of the list above, reformatted.
SRPRA
- z-score vs non-targeting control: 1.97
- call: active

RAB11FIP1
- z-score vs non-targeting control: 1.31
- call: active

LRRC45
- z-score vs non-targeting control: 0.792
- call: inactive

GSTK1
- z-score vs non-targeting control: 1.85
- call: active

PSMC2
- z-score vs non-targeting control: 1.38
- call: active

MTNAP1
- z-score vs non-targeting control: 0.792
- call: inactive

FAM78A
- z-score vs non-targeting control: -0.769
- call: inactive

The listing continues:
gene symbol,z-score vs non-targeting control,call
OR6A2,-0.878,inactive
L3HYPDH,1.86,active
PSEN1,-0.58,inactive
TPMT,-0.613,inactive
MPP7,2.89,active
ANKRD50,0.0321,inactive
BTBD6,-2.01,active
TEDC1,-0.8,inactive
ORMDL2,-1.8,active
TMX4,1.47,active
ADAMTSL4,0.36,inactive
GDE1,0.774,inactive
VPS28,-1.2,active
TBX21,-1.04,active
FAM168A,-1.78,active
BOC,-0.0331,inactive
